One test has as its target MurX (Mycobacterium tuberculosis, UniProt P9WMW7). The test is classed as biochemical, M. tuberculosis. Conditions: read-out: MurX inhibition IC50.
For test [1], the target named is WecA (polyprenyl phosphate-GlcNAc-1-phosphate transferase) (Mycobacterium tuberculosis, UniProt P9WMW5). The test is classed as biochemical, M. tuberculosis. Conditions: read-out: WecA inhibition IC50.

Protein sequences, listed by entry. Tags and fused reporters are not part of them. Lines headed by an entry give the natural chain unless they say otherwise; changes in a name come on top.
UniProt P9WMW7: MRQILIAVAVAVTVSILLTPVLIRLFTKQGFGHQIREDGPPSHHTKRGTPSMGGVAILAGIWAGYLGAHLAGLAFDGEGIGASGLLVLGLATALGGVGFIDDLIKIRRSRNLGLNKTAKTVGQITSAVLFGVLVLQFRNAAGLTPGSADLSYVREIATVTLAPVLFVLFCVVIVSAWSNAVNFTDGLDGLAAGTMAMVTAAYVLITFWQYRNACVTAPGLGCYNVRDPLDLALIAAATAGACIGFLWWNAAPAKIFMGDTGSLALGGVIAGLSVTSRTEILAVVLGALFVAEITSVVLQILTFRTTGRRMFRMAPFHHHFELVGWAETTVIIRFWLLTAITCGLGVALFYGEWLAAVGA
UniProt P9WMW5: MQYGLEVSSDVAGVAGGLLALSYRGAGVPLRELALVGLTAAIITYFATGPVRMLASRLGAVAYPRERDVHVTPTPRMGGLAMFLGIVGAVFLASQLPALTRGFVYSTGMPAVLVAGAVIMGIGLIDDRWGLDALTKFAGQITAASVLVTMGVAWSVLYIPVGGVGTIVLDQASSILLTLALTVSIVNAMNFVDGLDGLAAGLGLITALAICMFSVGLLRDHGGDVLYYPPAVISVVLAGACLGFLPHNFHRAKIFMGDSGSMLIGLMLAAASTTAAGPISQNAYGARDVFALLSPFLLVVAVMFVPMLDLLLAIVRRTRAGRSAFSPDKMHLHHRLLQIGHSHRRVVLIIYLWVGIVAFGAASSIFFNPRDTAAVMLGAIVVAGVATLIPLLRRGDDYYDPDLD

pIC50: −log10 of the molar value.

Take “Muraymycin D1-diamide [Muraymycin D1-diamide (3)]”: the figures for the pIC50 (at MurX; in test [1]) were 8.02 and 7.15, respectively.

On to “Muraymycin D1-amide [Muraymycin D1-amide (2)]”, for which the negative-log IC50 (pIC50) (usually the IC50 on a negative log10 scale, so that one unit is a factor of ten) at MurX is 7.96; in test [1], 6.18.

These data come from PMC5053896 (Journal of the American Chemical Society, 2016).
